Results of unrelated studies side by side (data: NIAID ChemDB).

All rows: tests in culture

Lines come from different laboratories, so protocols vary.

{"SMILES": "CC(C)(O)c1cn(-c2ccc3ccccc3c2)nn1", "tested at": "2048 µg/mL", "measure": "inhibition", "read by": "broth dilution", "strain": "URM 4608", "organism": "Candida parapsilosis", "result": "0%"}
{"SMILES": "NCS(=O)(=O)O", "tested at": "5 µg/mL", "measure": "inhibition", "read by": "cytopathic effect", "strain": "TYPE 3", "organism": "Adenovirus", "cell line": "Human amnion AV3 cells", "result": "0%"}
{"SMILES": "Nc1nc2c(ncn2COCCO)c(=O)[nH]1", "tested at": "10 µg/mL", "measure": "inhibition", "read by": "plaque count", "strain": "OKA", "organism": "Varicella zoster virus", "cell line": "HELF", "result": "100%"}
{"SMILES": "Nc1ccc2cc([N+](=O)[O-])cc(S(=O)(=O)[O-])c2c1", "tested at": "5 µg/mL", "measure": "inhibition", "read by": "cytopathic effect", "organism": "Herpes simplex virus", "cell line": "Human conjunctiva cells", "result": "0%"}
{"SMILES": "CCC(CC)[C@H](NC(C)=O)[C@@H]1[C@H](O)[C@@H](C(=O)O)C[C@H]1N=C(N)N", "measure": "EC50", "strain": "H1N1 A/Beijing/262/95", "organism": "Influenza A virus", "cell line": "MDCK", "result": "0.36 µM"}
{"SMILES": "CCc1cn([C@@H]2O[C@H](CO)[C@@H](O)[C@@H]2O)c(=O)[nH]c1=O", "tested at": "100 µg/mL", "measure": "inhibition", "read by": "plaque count", "strain": "Kawaguchi", "organism": "Varicella zoster virus", "cell line": "HELF", "result": "0%"}
{"SMILES": "Oc1ccccc1C=Nc1ccccc1O", "measure": "MIC99", "strain": "23/10993", "organism": "Cryptococcus gattii", "result": "11.3 µg/mL"}
{"SMILES": "Cc1cc(-c2ccc(N=Nc3ccc4c(S(=O)(=O)O)cc(S(=O)(=O)O)c(N)c4c3O)c(C)c2)ccc1N=Nc1ccc2c(S(=O)(=O)O)cc(S(=O)(=O)O)c(N)c2c1O", "tested at": "10 µg/mL", "measure": "inhibition", "read by": "cytopathic effect", "organism": "Herpes simplex virus", "cell line": "Human conjunctiva cells", "result": "100%"}
{"SMILES": "CCOC(=O)c1c(C)nc(NCCCNc2ccnc3cc(Cl)ccc23)nc1-c1ccccc1", "measure": "MIC99", "strain": "ATCC 62066", "organism": "Cryptococcus neoformans", "result": "8 µg/mL"}
{"SMILES": "O=c1[nH]c(=O)n([C@@H]2O[C@H](CO)[C@@H](O)[C@@H]2O)cc1/C=C/Br", "tested at": "0.01 µg/mL", "measure": "inhibition", "read by": "plaque count", "strain": "KANNO", "organism": "Varicella zoster virus", "cell line": "HELF", "result": "100%"}
{"SMILES": "O=S(=O)([O-])c1cc(O)c2ccccc2c1", "tested at": "5 µg/mL", "measure": "inhibition", "read by": "cytopathic effect", "organism": "Herpes simplex virus", "cell line": "Human conjunctiva cells", "result": "0%"}
{"SMILES": "Cc1cc(CCCOc2c(C)cc(-c3noc(C(F)(F)F)n3)cc2C)on1", "measure": "EC50", "read by": "cytopathic effect / visual reading", "strain": "Isolate 5", "organism": "Rhinovirus", "cell line": "OHIO HELA-I", "result": "0.08 µg/mL"}
{"SMILES": "CC(C)(O)c1cn(-c2cccc3ccccc23)nn1", "tested at": "2048 µg/mL", "measure": "inhibition", "read by": "broth dilution", "strain": "URM 3627", "organism": "Candida parapsilosis", "result": "0%"}
{"SMILES": "Oc1ccccc1N=Cc1cccc(O)c1O", "measure": "MIC99", "strain": "ATCC 32608", "organism": "Cryptococcus gattii", "result": "5.7 µg/mL"}
{"SMILES": "O=C(Nc1ccc2c(O)c(N=Nc3ccc(N=Nc4ccc(S(=O)(=O)O)cc4)cc3)c(S(=O)(=O)O)cc2c1)c1ccccc1", "tested at": "50 µg/mL", "measure": "inhibition", "read by": "cytopathic effect", "strain": "TYPE 3", "organism": "Adenovirus", "cell line": "Human embryonic lung cells", "result": "20%"}
{"SMILES": "C=CCc1ccc(OC)c(OC)c1", "measure": "MIC90", "read by": "turbidity", "strain": "2557", "organism": "Candida tropicalis", "result": "340 µg/mL"}
{"SMILES": "Nc1ccc2cc(S(=O)(=O)O)cc(S(=O)(=O)O)c2c1", "tested at": "5 µg/mL", "measure": "inhibition", "read by": "cytopathic effect", "strain": "TYPE 3", "organism": "Adenovirus", "cell line": "Human embryonic lung cells", "result": "0%"}
{"SMILES": "C/C=C\\[C@@H]1C[C@H](C(=O)O)N[C@H]1[C@@H](NC(C)=O)[C@](C)(CCC)OC", "measure": "EC50", "read by": "plaque count", "strain": "Influenza A H3N2 isolate C25C", "organism": "Influenza A virus", "cell line": "MDCK", "result": "≤0.04 µg/mL"}
{"SMILES": "Oc1ccccc1N=Cc1ccc(F)cc1", "measure": "MIC99", "strain": "196L/03", "organism": "Cryptococcus gattii", "result": "4 µg/mL"}
{"SMILES": "O=C1C(c2[nH]c3ccc(S(=O)(=O)O)cc3c2O)=Nc2ccc(S(=O)(=O)O)cc21", "tested at": "50 µg/mL", "measure": "inhibition", "read by": "cytopathic effect", "strain": "TYPE 3", "organism": "Adenovirus", "cell line": "Human embryonic lung cells", "result": "0%"}
{"SMILES": "Oc1ccccc1N=Cc1ccccc1", "measure": "MIC", "read by": "broth dilution", "strain": "28JF", "organism": "Cryptococcus neoformans", "result": "8 µg/mL"}
{"SMILES": "O=C(O)c1ccc(S(=O)(=O)[O-])cc1C(=O)O", "tested at": "10 µg/mL", "measure": "inhibition", "read by": "cytopathic effect", "strain": "TYPE 3", "organism": "Adenovirus", "cell line": "Human embryonic lung cells", "result": "0%"}
{"SMILES": "Cc1ccc(-n2cc(C(C)(C)O)nn2)cc1C", "tested at": "2048 µg/mL", "measure": "inhibition", "read by": "broth dilution", "strain": "URM 3719", "organism": "Candida albicans", "result": "0%"}
{"SMILES": "Cc1cn([C@@H]2O[C@H](CO)[C@@H](O)[C@@H]2O)c(=O)[nH]c1=O", "tested at": "0.01 µg/mL", "measure": "inhibition", "read by": "plaque count", "strain": "Kawaguchi", "organism": "Varicella zoster virus", "cell line": "HELF", "result": "0%"}
{"SMILES": "CC(C)(O)c1cn(-c2ccc(Cl)cc2)nn1", "measure": "MIC", "read by": "broth dilution", "strain": "URM 4984", "organism": "Candida parapsilosis", "result": "128 µg/mL"}
{"SMILES": "O=c1[nH]c(=O)n([C@H]2C[C@H](O)[C@@H](CO)O2)cc1I", "tested at": "0.1 µg/mL", "measure": "inhibition", "read by": "plaque count", "strain": "Asahikawa", "organism": "Varicella zoster virus", "cell line": "HELF", "result": "6%"}
{"SMILES": "O=[N+]([O-])c1cc([N+](=O)[O-])c2ccc(S(=O)(=O)O)cc2c1O", "tested at": "10 µg/mL", "measure": "inhibition", "read by": "cytopathic effect", "organism": "Herpes simplex virus", "cell line": "Human conjunctiva cells", "result": "20%"}
{"SMILES": "CCOC(=O)c1ccc(OCCC2CCN(c3ccc(C)nn3)CC2)cc1", "measure": "EC50", "read by": "neutral red", "strain": "611-CV35 (ICAM-1 receptor group 59)", "organism": "Rhinovirus", "cell line": "KB", "result": "0.016 µM"}

Repeating the final 2 entries:

| SMILES | tested at | measure | read by | strain | organism | cell line | result |
|---|---|---|---|---|---|---|---|
| O=[N+]([O-])c1cc([N+](=O)[O-])c2ccc(S(=O)(=O)O)cc2c1O | 10 µg/mL | inhibition | cytopathic effect | - | Herpes simplex virus | Human conjunctiva cells | 20% |
| CCOC(=O)c1ccc(OCCC2CCN(c3ccc(C)nn3)CC2)cc1 | - | EC50 | neutral red | 611-CV35 (ICAM-1 receptor group 59) | Rhinovirus | KB | 0.016 µM |

MIC50, MIC90 and the like: level of inhibition, or share of isolates inhibited. ECn is the concentration giving n% inhibition of infection, replication or growth. Percent inhibition refers to the dose given; in toxicity tests it is the harm to the cells. Blank or dashed fields: not listed here.